The values below come from patent publication US5786168, “Method for recombinant production of antigen non-specific glycosylation inhibiting factor (GIF)” (Kirin Beer Kabushiki Kaisha, dated 1998).

This assay addresses bee venom phospholipase A2 (PLA2) (honey bee, UniProt P00630). The experiment in a line: supernatants of the 5 clones cultured without anti-CD3 treatment, PLA2-Sepharose.

B1: human antigen non-specific glycosylation inhibiting factor (GIF), hybridoma-derived (other)
chain: PMFIVNTNVPRASVPDGFLSELTQQLAQATGKPPQYIAVHVVPDQLMAFGGSSEPCALCSLHSIGKIGGAQNRSYSKLLCGLLAERLRISPDRVYINYYDMNAANVGWNNSTFA
Regarding B1, the binding result is given as “no binding”.
